Measurements reported in PubChem BioAssay AID1259414 (Drosophila RNAi Screening Center, 2018)
In all, the deposit lists about 24,000 reagents; shown is an unselected part of those with a known target gene and a result. Over the whole deposit, about 1,210 (5%) got an active call. 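Inactive calls also include excluded dsRNAs with several or no targets, genes unexpressed in JW18, and well A1, regardless of score.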 Entries without a mark were called inactive. Names joined by + are all predicted targets of the reagent.

Assay: 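Fly genes that alter Wolbachia amount inside host cells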 (primary screen)
Cell system: Drosophila JW18 cells infected with Wolbachia
Knock-down reagent: long dsRNA against Drosophila genes, 0.25 µg dsRNA per well of a 384-well plate
Duration: 5 days
Treatment: cells persistently infected with Wolbachia before knock-down; no added drug
Read-out: 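Automated imaging of bacterial rRNA staining divided by host cell count, reported as plate-normalised robust z-score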
Reading the numbers: Wolbachia per cell robust z: higher = more Wolbachia per host cell than the plate typical
Active means: 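Hit when robust z is 1.5 or more, or -1.5 or less, in at least two of three replicates; excludes dsRNAs with several or no targets, genes not expressed in JW18 and well A1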

Target gene	amplicon	Wolbachia per cell robust z, rep 1	Wolbachia per cell robust z, rep 2	Wolbachia per cell robust z, rep 3
rdgA (retinal degeneration A)	DRSC17863	-4.45	-0.586	-0.544
rdgA (retinal degeneration A)	DRSC18036	-3.26	0.365	0.219
rdgA (retinal degeneration A)	DRSC18827	1.31	0.402	-0.0565
rdgA (retinal degeneration A)	DRSC25192	-1.58	-0.29	-0.43
rdgA (retinal degeneration A)	DRSC27192	0.0164	0.41	0.141
rdgA (retinal degeneration A)	DRSC39133	0.924	0.135	0.816
rdgA (retinal degeneration A)	DRSC40678	-1.04	0.536	-0.261
CG32240	DRSC08093	-0.431	0.0521	0.09
Adsl (Adenylosuccinate lyase)	DRSC15500	0.114	1.18	1.64
CG14147	DRSC10149	0.0696	0.587	1.33
CG10505	DRSC04075	-0.675	-0.481	-1.85
Ugt302E1 (UDP-glycosyltransferase family 302 member E1)	DRSC15635	-2.2	0.674	-2.64
Ugt302E1 (UDP-glycosyltransferase family 302 member E1)	DRSC29326	-0.179	0.71	-7.1
ClC-c (Chloride channel-c)	DRSC10499	0.105	0.628	-0.406
lectin-29Ca	DRSC02635	0.48	0.209	0.937
C1GalTA (Core 1 Galactosyltransferase A)	DRSC03246	0.207	0.737	-0.115
CG4161	DRSC01930	-0.404	-0.174	0.526
CG4161	DRSC26020	0.47	-0.156	-0.959
ThrRS (Threonyl-tRNA synthetase)	DRSC02843	-1.58 (active)	-1.83	-5.39
CG31815	DRSC01548	-0.00584	0.0625	-0.348
CG31815	DRSC29263	-0.136	-0.428	0.403
Mettl3 (Methyltransferase like 3)	DRSC15921	-0.00385	-2.46	-0.384
Mettl3 (Methyltransferase like 3)	DRSC27423	-0.432	-0.915	0.532
CG8180	DRSC07092	0.88	-1.79	0.303
CG8180	DRSC07093	-3.62	-0.118	-1.74
mt:ND1 (mitochondrial NADH-ubiquinone oxidoreductase chain 1)	DRSC40596	0.746	-1.85	-0.682
NimC2 (Nimrod C2)	DRSC01881	0.102	-0.605	-3.55
CG30376	DRSC05086	-0.591	-0.402	0.506

Individual results from the entries so far:
Under “Wolbachia per cell robust z, rep 3”, CG10505 [DRSC04075] is entered as -1.85
Value of Ugt302E1 (UDP-glycosyltransferase family 302 member E1) [DRSC29326] in “Wolbachia per cell robust z, rep 1”: -0.179
CG30376 [DRSC05086], Wolbachia per cell robust z, rep 1 → -0.591
Result for Mettl3 (Methyltransferase like 3) [DRSC27423] under “Wolbachia per cell robust z, rep 1”: -0.432
Under “Wolbachia per cell robust z, rep 3”, Ugt302E1 (UDP-glycosyltransferase family 302 member E1) [DRSC15635] reads -2.64
lectin-29Ca [DRSC02635], Wolbachia per cell robust z, rep 1: 0.48

Additional entries follow:
Target gene	amplicon	Wolbachia per cell robust z, rep 1	Wolbachia per cell robust z, rep 2	Wolbachia per cell robust z, rep 3
CG31077	DRSC13805	0.354	0.0544	-0.548
CG31077	DRSC23916	-0.461	1.76	-0.504
Slik (Sterile20-like kinase)	DRSC04471	-1.02	0.14	-0.233
Slik (Sterile20-like kinase)	DRSC29219	-0.149	-0.431	-0.295
Sf3b6 (Splicing factor 3b subunit 6)	DRSC09972	-0.816	0.00606	-0.376
Sf3b6 (Splicing factor 3b subunit 6)	DRSC26462	-0.265 (active)	3.59	4.01
CG31551	DRSC12159	0.403	0.567	-0.379
CG31551	DRSC22403	1.08	0.0272	0.373
CG31551	DRSC27808	-1.46	-1.54	-0.908
CG3368	DRSC15485	-1.42	0.82	0.879
rasp	DRSC08191	-0.389	0.712	-0.186
apt (apontic)	DRSC23278	0.877	0.455	-7.02
apt (apontic)	DRSC26181	-0.513	-0.52	0.31
CG43066	DRSC06927	0.186	0.128	-0.136
CG43066	DRSC26570	0.387	-0.929	-1.87
CG6701	DRSC07007	0.124	1.01	1.43
CG17486	DRSC07752	0.436	-0.606	-1.23
r2d2	DRSC03014	0.724	0.451	-0.155
r2d2	DRSC29562	1.14	0.866	0.518
tst + CG10375	DRSC14237	-9.8	1.49	-1.36
Eig71Ee (Ecdysone-induced gene 71Ee)	DRSC11152	1.14	0.412	0.0675
Nep2 (Neprilysin 2)	DRSC12126	0.298	-2.22	0.551
Nep2 (Neprilysin 2)	DRSC21398	0.258	-0.0762	-1.02
CG10064	DRSC09689	0.268	-1.57	0.322
Msh6	DRSC10759	-2.77	0.373	0.487
CG33458	DRSC22891	-0.934	-4.06	0.0991
roh (reduction of Rh1)	DRSC04003	-0.339	-0.211	0.0227
Chsy (Chondroitin sulfate synthase)	DRSC20175	0.543	-0.368	-1.76
Chsy (Chondroitin sulfate synthase)	DRSC20176	-1.63	0.0105	-0.0671
DCTN3-p24 (Dynactin 3, p24 subunit)	DRSC04592	0.863	-0.242	-2.52
DCTN3-p24 (Dynactin 3, p24 subunit)	DRSC29156	0.373	0.125	-1.18
CG4789	DRSC19918	0.093	-0.00859	0.544
tup (tailup)	DRSC03627	-1.08	0.792	-5.09
tup (tailup)	DRSC23978	-0.477	-0.294	0.881
CR34285 (pseudo)	DRSC38627	-0.575	-0.82	-2.7
CG17187	DRSC15181	0.604	-1.01	0.14
CG17187	DRSC29903	1.93 (active)	1.12	1.57
CG13108	DRSC02206	-0.441	-0.746	-0.874
CG9662	DRSC00723	0.386	0.214	-0.0572
CG13970	DRSC02311	0.611	-5.21	0.836
CG13970	DRSC29509	-0.681	-3.15	0.299
